Results of unrelated studies side by side (data: NIAID ChemDB).

Shared fields: tests in culture; agent: Candida albicans; measure: MBC

Blank or dashed fields: not listed here. Neighbouring rows are from separate reports.

smiles	strain or isolate	result
COc1ccc(C2=NN(C(C)=O)C(c3cc(OC)c(OC)c(OC)c3)C2)cc1OC	DSM 70014	25 µg/mL
CCCCCOC[n+]1cccc(NCn2nnc3ccccc32)c1	ATCC 10231	>1383 µM
COc1ccc(C2=CC(c3cc(OC)c(OC)c(OC)c3)NC(=S)N2)cc1OC	DSM 70014	100 µg/mL
Cc1ccc(-c2n[nH]c3c2CCCC3)cc1	264/624	31.2 µg/mL
CCCCCCCCCCCCOC[n+]1cccc(NCn2cnc3ccccc32)c1	ATCC 10231	17.5 µM
c1ccc(-c2ccc(C(c3ccccc3)n3ccnc3)cc2)cc1		19.1 µg/mL
Cc1ccc(N=Nc2ccc(O)c(C[N+](C)(C)COCC3CCC(C)CC3)c2)cc1		289 µM
CCCCCCCCCCOC[n+]1cccc(NCn2cnc3ccccc32)c1	ATCC 10231	290 µM
CCCCCCCCCCCC[N+](C)(C)COC(C)C	ATCC 10231	311 µM
CCCCCCCCCCOC[n+]1cccc(NCNc2ccc[n+](COCCCCCCCCCC)c2)c1	ATCC 10231	13 µM
C[N+](C)(COC1CCCCC1)Cc1cc(N=Nc2ccc(Cl)cc2)ccc1O		142 µM
CCCCCCCCCOC[N+](C)(C)CCCCCCCC	ATCC 10231	286 µM
COc1cc(C2CC(c3ccc4c(c3)OCO4)=NN2c2ccc([N+](=O)[O-])cc2)cc(OC)c1OC	DSM 70014	50 µg/mL
CCCCCCCCCCCC[N+](C)(C)COC(C)CCC	ATCC 10231	143 µM
COc1ccc(C(=O)/C=C/c2cc(OC)c(OC)c(OC)c2)cc1OC	DSM 70014	200 µg/mL
Cc1ccc(N=Nc2ccc(O)c(C[N+](C)(C)COC3CCCCC3)c2)cc1		299 µM
CCCCCCCCCCCC[N+](C)(C)COCCCCCCCC	ATCC 10231	128 µM
CCCCCCCCCCOC[N+](C)(C)Cc1cc(N=Nc2ccc(C)cc2)ccc1O		2103 µM
Cc1cc(O)c(C(C)C)cc1O		125 µg/mL